{"source": "paper PMC5033645", "about": "(Nature structural & molecular biology, 2016)", "binders": {"B1": {"name": "BoNT/A1 receptor-binding domain (HCA), wild type (domain or fragment)", "chain": "not shown"}}, "target": "T1, SUMO-gSV2C: glycosylated human SV2C-L4 (V473-T567) with SUMO, secreted from HEK293 cells (human, UniProt Q496J9 473-567)", "T1 sequence": "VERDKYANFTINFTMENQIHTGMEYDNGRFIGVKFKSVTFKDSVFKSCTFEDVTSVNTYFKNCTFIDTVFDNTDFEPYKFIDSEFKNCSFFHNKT", "test": "SPR", "data": [{"binder": "B1", "values": [{"measurement": "KD of the high affinity component (heterogeneous fit)", "result": "~15", "unit": "nM"}, {"measurement": "KD of the low affinity component (heterogeneous fit)", "result": "~220", "unit": "nM"}]}]}
